Measured values from several laboratories, pooled; numbers as filed in NIAID ChemDB.

Common to all: growth or infection tests; species: Mycobacterium avium intracellulare; read-out: MIC

Conditions beyond the fields shown may differ between rows.

compound	strain or isolate	value
OCCN1CCN(CC/C=C2/c3ccccc3Sc3ccc(C(F)(F)F)cc32)CC1	ATCC 23432	6.25 µg/mL
CC[C@H]1OC(=O)[C@H](C)[C@@H](OC(=O)CCCc2ccccc2)[C@H](C)[C@@H](O[C@@H]2O[C@H](C)C[C@H](N(C)C)[C@H]2O)C(C)(O)C[C@@H](C)/C(=N\OCCCOc2ccccc2)[C@H](C)[C@@H](O)[C@]1(C)O	20066 (clarithromycin-susceptible)	12.5 µg/mL
CC(=O)NC[C@H]1CN(c2ccc(N3CCN(c4ccc([N+](=O)[O-])s4)CC3)c(F)c2)C(=O)O1	B-78/3	0.25 µg/mL
CC[C@H]1OC(=O)[C@H](C)[C@@H](O[C@H]2C[C@@](C)(OC)[C@@H](OC(C)=O)[C@H](C)O2)[C@H](C)[C@@H](O[C@@H]2O[C@H](C)C[C@H](N(C)C)[C@H]2OC(=O)NN)C(C)(O)C[C@@H](C)/C(=N\OCCCC2CCCCC2)[C@H](C)[C@@H](O)[C@]1(C)O	20066 (clarithromycin-susceptible)	3.13 µg/mL
CC1(C)S[C@@H]2[C@H](NC(=O)C(C(=O)O)c3ccccc3)C(=O)N2[C@H]1C(=O)O	CIPT 140310030	>75 µg/mL
CO[C@H]1/C=C/O[C@@]2(C)Oc3c(C)c(O)c4c(O)c(c5c(c4c3C2=O)NC2(CCN(CC(C)C)CC2)N=5)=NC(=O)/C(C)=C\C=C\[C@H](C)[C@H](O)[C@@H](C)[C@@H](O)[C@@H](C)[C@H](OC(C)=O)[C@@H]1C	N-897 (HIV-)	0.1 µg/mL
CC1(C)S[C@@H]2[C@H](NC(=O)[C@H](C(=O)[O-])c3ccsc3)C(=O)N2[C@H]1C(=O)[O-].[Na+].[Na+]	CIPT 140310054	>75 µg/mL
CC(C)N=c1cc2n(-c3ccc(Cl)cc3)c3ccccc3nc-2cc1Nc1ccc(Cl)cc1	99241	2 µg/mL
C[C@@H]1CN(c2c(F)c(N)c3c(=O)c(C(=O)O)cn(C4CC4)c3c2F)C[C@H](C)N1	N-897 (HIV-)	4 µg/mL
CN(C)CCCN1c2ccccc2Sc2ccc(Cl)cc21	T 7360	25 µg/mL
CCCCCCCCCCCCO/N=C1\[C@H](C)CC(C)(O)[C@H](O[C@@H]2O[C@H](C)C[C@H](N(C)C)[C@H]2O)[C@@H](C)[C@H](OC2C[C@@](C)(OC)[C@@H](O)[C@H](C)O2)[C@@H](C)C(=O)O[C@H](CC)[C@@](C)(O)[C@H](O)[C@H]1C	20066 (clarithromycin-susceptible)	50 µg/mL
NNC(=O)c1ccncc1	N-752 (HIV-)	1 µg/mL
CCCCCCCCNC(=O)O[C@H]1C(O[C@@H]2[C@@H](C)[C@H](O[C@H]3C[C@@](C)(OC)[C@@H](OC(C)=O)[C@H](C)O3)[C@@H](C)C(=O)O[C@H](CC)[C@@](C)(O)[C@H](O)[C@@H](C)/C(=N/OCCCC3CCCCC3)[C@H](C)CC2(C)O)O[C@H](C)C[C@@H]1N(C)C	20075	0.39 µg/mL
CC[C@H]1OC(=O)[C@H](C)[C@@H](O[C@H]2C[C@@](C)(OC)[C@@H](OC(C)=O)[C@H](C)O2)[C@H](C)[C@@H](O[C@@H]2O[C@H](C)C[C@H](N(C)C)[C@H]2OC(=O)NNCCOc2ccccc2)C(C)(O)C[C@@H](C)/C(=N\OCCCC2CCCCC2)[C@H](C)[C@@H](O)[C@]1(C)O	20066 (clarithromycin-susceptible)	0.78 µg/mL
CO[C@H]1/C=C/O[C@@]2(C)Oc3c(C)c(O)c4c(O)c(c5c(c4c3C2=O)NC2(CCN(CC(C)C)CC2)N=5)=NC(=O)/C(C)=C\C=C\[C@H](C)[C@H](O)[C@@H](C)[C@@H](O)[C@@H](C)[C@H](OC(C)=O)[C@@H]1C	CIPT 140310034	0.05 µg/mL
CC/C=C/CCNC(=O)O[C@H]1C(O[C@@H]2[C@@H](C)[C@H](O[C@H]3C[C@@](C)(OC)[C@@H](OC(C)=O)[C@H](C)O3)[C@@H](C)C(=O)O[C@H](CC)[C@@](C)(O)[C@H](O)[C@@H](C)/C(=N/OCCCC3CCCCC3)[C@H](C)CC2(C)O)O[C@H](C)C[C@@H]1N(C)C	20075	0.2 µg/mL
CCCCO/N=C1\[C@H](C)CC(C)(O)[C@H](O[C@@H]2O[C@H](C)C[C@H](N(C)C)[C@H]2O)[C@@H](C)[C@H](OC2C[C@@](C)(OC)[C@@H](O)[C@H](C)O2)[C@@H](C)C(=O)O[C@H](CC)[C@@](C)(O)[C@H](O)[C@H]1C	20066 (clarithromycin-susceptible)	1.56 µg/mL
CC[C@H]1OC(=O)[C@H](C)[C@@H](O[C@H]2C[C@@](C)(OC)[C@@H](O)[C@H](C)O2)[C@H](C)[C@@H](O[C@@H]2O[C@H](C)C[C@H](N(C)C)[C@H]2O)[C@](C)(OC)C[C@@H](C)C(=O)[C@H](C)[C@@H](O)[C@]1(C)O	N-809 (HIV-)	0.25 µg/mL
CO[C@H]1/C=C/O[C@@]2(C)Oc3c(C)c(O)c4c(O)c(c5c(c4c3C2=O)NC2(CCN(CC(C)C)CC2)N=5)=NC(=O)/C(C)=C\C=C\[C@H](C)[C@H](O)[C@@H](C)[C@@H](O)[C@@H](C)[C@H](OC(C)=O)[C@@H]1C	420	0.5 µg/mL
CC[C@H]1OC(=O)[C@H](C)[C@@H](OC(=O)Cc2ccccc2)[C@H](C)[C@@H](O[C@@H]2O[C@H](C)C[C@H](N(C)C)[C@H]2O)C(C)(O)C[C@@H](C)/C(=N\OCCCOc2ccccc2)[C@H](C)[C@@H](O)[C@]1(C)O	20066 (clarithromycin-susceptible)	3.13 µg/mL
CCNC(=O)[C@@H](NC(=O)Cc1ccccc1)[C@@H]1N[C@@H](C(=O)NCCNC(=O)[C@@H]2N[C@@H]([C@H](NC(=O)Cc3ccccc3)C(=O)NCC)SC2(C)C)C(C)(C)S1	CIPT 140310019	25 µg/mL
CCCCCNC(=O)O[C@H]1C(O[C@@H]2[C@@H](C)[C@H](O[C@H]3C[C@@](C)(OC)[C@@H](OC(C)=O)[C@H](C)O3)[C@@H](C)C(=O)O[C@H](CC)[C@@](C)(O)[C@H](O)[C@@H](C)/C(=N/OCCCC3CCCCC3)[C@H](C)CC2(C)O)O[C@H](C)C[C@@H]1N(C)C	20067	0.2 µg/mL
OCCN1CCN(CCC=C2c3ccccc3Sc3ccc(Cl)cc32)CC1	R 8588	25 µg/mL
CC[C@H]1OC(=O)[C@H](C)[C@@H](OC2C[C@@](C)(OC)[C@@H](OC(=O)CCCCc3ccccc3)[C@H](C)O2)[C@H](C)[C@@H](O[C@@H]2O[C@H](C)C[C@H](N(C)C)[C@H]2O)C(C)(O)C[C@@H](C)/C(=N\OCCCOc2ccccc2)[C@H](C)[C@@H](O)[C@]1(C)O	20066 (clarithromycin-susceptible)	0.78 µg/mL
COc1ccc2c(c1)N(C[C@H](C)CN(C)C)c1ccccc1S2	R 7313	25 µg/mL
CC[C@H]1OC(=O)[C@H](C)[C@@H](O[C@H]2C[C@@](C)(OC)[C@@H](OC(C)=O)[C@H](C)O2)[C@H](C)[C@@H](OC2O[C@H](C)C[C@H](N(C)C)[C@H]2OC(=O)NCC(=O)NC)C(C)(O)C[C@@H](C)/C(=N\OCCCC2CCCCC2)[C@H](C)[C@@H](O)[C@]1(C)O	20066	1.56 µg/mL

A second listing of 3 rows from above:

compound,strain or isolate,value
CC[C@H]1OC(=O)[C@H](C)[C@@H](O[C@H]2C[C@@](C)(OC)[C@@H](OC(C)=O)[C@H](C)O2)[C@H](C)[C@@H](OC2O[C@H](C)C[C@H](N(C)C)[C@H]2OC(=O)NCC(=O)NC)C(C)(O)C[C@@H](C)/C(=N\OCCCC2CCCCC2)[C@H](C)[C@@H](O)[C@]1(C)O,20066,1.56 µg/mL
CC1(C)S[C@@H]2[C@H](NC(=O)[C@H](C(=O)[O-])c3ccsc3)C(=O)N2[C@H]1C(=O)[O-].[Na+].[Na+],CIPT 140310054,>75 µg/mL
CCCCCCCCCCCCO/N=C1\[C@H](C)CC(C)(O)[C@H](O[C@@H]2O[C@H](C)C[C@H](N(C)C)[C@H]2O)[C@@H](C)[C@H](OC2C[C@@](C)(OC)[C@@H](O)[C@H](C)O2)[C@@H](C)C(=O)O[C@H](CC)[C@@](C)(O)[C@H](O)[C@H]1C,20066 (clarithromycin-susceptible),50 µg/mL